Test results: publication PMC10499932, “Broadly neutralizing antibodies derived from the earliest COVID-19 convalescents protect mice from SARS-CoV-2 variants challenge” (Signal Transduction and Targeted Therapy, 2023)

Biological target: SARS-CoV-2 WT receptor binding domain (RBD) of Spike (SARS-CoV-2, UniProt P0DTC2)

B1: 3C4 (antibody, V domains shown)
VH: EVQLVESGGGLVQPGRSLRLSCAASGFNFDDFAMHWVRQAPGKGLEWVSGISWNSVNIGYADSVKGRFTISRDNAKNSLYLQMNSLRAEDTALYYCGKDMFPYSFYYYGMDVWGQGTTVTVSS
VL: EIVLTQSPATLSLSPGERATLSCRASQSVTSYLAWYQQKPGQAPRLLMYDASNRATGIPARFSGSGSGTDFTLTISSLEPEDFAVYYCQQRNDWPFTFGPGTKVDIK
  binding result: binds
